Measured values taken from ChEMBL document CHEMBL3045889 (Pest Manag Sci, 2012).
In brackets after ≈: the same amount, converted by molar mass.

How the values were obtained:
Fusarium graminearum [1] = test: Antifungal activity against Fusarium graminearum Y50C containing site-directed mutant at codon 50 of beta2 tubulin assessed as inhibition of mycelial growth
Fusarium graminearum [2] = test: Antifungal activity against beta1 tubulin deletion mutant Fusarium graminearum DB Y50C containing site-directed mutant at codon 50 of beta2 tubulin assessed as inhibition of mycelial growth
Fusarium graminearum [3] = test: Antifungal activity against beta1 tubulin deletion mutant Fusarium graminearum DBF200Y containing site-directed mutant at codon 200 of beta2 tubulin assessed as inhibition of mycelial growth
Fusarium graminearum [4] = test: Antifungal activity against Fusarium graminearum F200Y containing site-directed mutant at codon 200 of beta2 tubulin assessed as inhibition of mycelial growth
Fusarium graminearum [5] = test: Antifungal activity against wild type Fusarium graminearum 2021 assessed as inhibition of mycelial growth
Fusarium graminearum [6] = test: Antifungal activity against beta1 tubulin deletion mutant Fusarium graminearum DB2-145 assessed as inhibition of mycelial growth
Fusarium graminearum [7] = test: Antifungal activity against Fusarium graminearum F167Y containing site-directed mutant at codon 167 of beta2 tubulin assessed as inhibition of mycelial growth
Fusarium graminearum [8] = test: Antifungal activity against beta2 tubulin over-expressing Fusarium graminearum 2OE assessed as inhibition of mycelial growth
Fusarium graminearum [9] = test: Antifungal activity against beta2 tubulin deletion mutant Fusarium graminearum DN83 assessed as inhibition of mycelial growth
Fusarium graminearum [10] = test: Antifungal activity against beta2 tubulin over-expressing Fusarium graminearum JOE assessed as inhibition of mycelial growth
Fusarium graminearum [11] = test: Antifungal activity against beta1 tubulin deletion mutant Fusarium graminearum DBF167Y containing site-directed mutant at codon 167 of beta2 tubulin assessed as inhibition of mycelial growth
Fusarium graminearum [12] = test: Antifungal activity against beta1 tubulin deletion mutant Fusarium graminearum DBE198K containing site-directed mutant at codon 198 of beta2 tubulin assessed as inhibition of mycelial growth
Fusarium graminearum [13] = test: Antifungal activity against Fusarium graminearum E198K containing site-directed mutant at codon 198 of beta2 tubulin assessed as inhibition of mycelial growth
Fusarium graminearum [14] = test: Antifungal activity against Fusarium graminearum JT04 assessed as inhibition of mycelial growth

Compound: COC(=O)Nc1nc2ccccc2[nH]1 [CARBENDAZIM]
- MIC (Fusarium graminearum [1]): 20 µg/mL (≈ 105 µM)
- EC50 (Fusarium graminearum [2]): 9.72 µg/mL (≈ 50.8 µM)
- MIC (Fusarium graminearum [2]): 50 µg/mL (≈ 262 µM)
- MIC (Fusarium graminearum [3]): > 100 µg/mL
- MIC (Fusarium graminearum [4]): 50 µg/mL (≈ 262 µM)
- MIC (Fusarium graminearum [5]): 1.4 µg/mL (≈ 7.32 µM)
- EC50 (Fusarium graminearum [6]): 0.68 µg/mL (≈ 3.56 µM)
- MIC (Fusarium graminearum [6]): 1.4 µg/mL (≈ 7.32 µM)
- MIC (Fusarium graminearum [7]): 50 µg/mL (≈ 262 µM)
- EC50 (Fusarium graminearum [8]): 0.64 µg/mL (≈ 3.35 µM)
- MIC (Fusarium graminearum [8]): 1.4 µg/mL (≈ 7.32 µM)
- EC50 (Fusarium graminearum [9]): 0.1 µg/mL (≈ 0.523 µM)
- MIC (Fusarium graminearum [9]): 1 µg/mL (≈ 5.23 µM)
- EC50 (Fusarium graminearum [10]): 14.1 µg/mL (≈ 73.9 µM)
- EC50 (Fusarium graminearum [11]): 25.2 µg/mL (≈ 132 µM)
- MIC (Fusarium graminearum [11]): 100 µg/mL (≈ 523 µM)
- EC50 (Fusarium graminearum [12]): 10.2 µg/mL (≈ 53.1 µM)
- MIC (Fusarium graminearum [13]): 100 µg/mL (≈ 523 µM)
- EC50 (Fusarium graminearum [14]): 4.51 µg/mL (≈ 23.6 µM)
